B1: A. tumefaciens Udh: 6×-His tagged uronate dehydrogenase from A. tumefaciens str. C58 (SEQ ID NO:24), expressed in E. coli and purified (protein, listed as Agrobacterium tumefaciens)
chain: MKRLLVTGAAGQLGRVMRERLAPMAEILRLADLSPLDPAGPNEECVQCDLADANAVNAMVAGCDGIVHLGGISVEKPFEQILQGNIIGLYNLYEAARAHGQPRIVFASSNHTIGYYPQTERLGPDVPARPDGLYGVSKCFGENLARMYFDKFGQETALVRIGSCTPEPNNYRMLSTWFSHDDFVSLIEAVFRAPVLGCPVVWGASANDAGWWDNSHLGFLGWKPKDNAEAFRRHITETTPPPDPNDALVRFQGGTFVDNPIFKQS
modifications: 6xHis tag
B2: P. syringae Udh: 6×-His tagged uronate dehydrogenase from P. syringae pv. tomato DC3000 (SEQ ID NO:2), expressed in E. coli and purified (protein, listed as Pseudomonas syringae)
chain: MASAHTTQTPFNRLLLTGAAGGLGKVLRETLRPYSHILRLSDIAEMAPAVGDHEEVQVCDLADKDAVHRLVEGVDAILHFGGVSVERPFEEILGANICGVFHIYEAARRHGVKRVIFASSNHVIGFYKQNETIDAHSPRRPDSYYGLSKSYGEDMASFYFDRYGIETVSIRIGSSFPEPQNRRMMSTWLSFDDLTRLLERALYTPDVGHTVVYGVSDNKTVWWDNRFASKLDYAPKDSSEVFRAKVDAQPMPADDDPAMVYQGGAFVASGPFGDK
modifications: 6xHis tag

Assay: Effect of pH on activity of purified Udhs
Type: biochemical
Conditions: purified Udh, FIG. 10a

Molecule | pH optimum
B1 | 8.0
B2 | 8.0

Source: patent US8835147B2, “Cellular production of glucaric acid through recombinant expression of uronate dehydrogenase and myo-inositol oxygenase” (Massachusetts Institute of Technology, priority 2008, dated 2014)
